Inhibition data for 54 compounds are collected here from PubChem BioAssay AID1527 (The Scripps Research Institute Molecular Screening Center, 2009).

The list shows a part of the results, in another mix than the full data. Active and inactive are the calls of the source.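 The calls were made as follows: active = inhibition above the mean of all tested compounds plus 3 SD, cutoff set per screening run (cut at about 7.5% in these data); inactive = the rest.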

This experiment concerns VIM-2 metallo-beta-lactamase (Pseudomonas aeruginosa). Description: VIM-2 metallo-beta-lactamase inhibitors, primary screen, biochemical, epi-absorbance readout, Pseudomonas aeruginosa enzyme (AID 1527).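 Also: red hydrolysis product quenches plate fluorescence so inhibitors raise well fluorescence; 0% = enzyme with DMSO and 100% = DMSO without enzyme.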 Particulars: purified VIM-2, nitrocefin hydrolysis, epi-absorbance fluorescence; at 5.6 µM; active compounds read high.
In the case of `CCOC(=O)N1CCC(Nc2ccc(C)cc2)CC1`, the inhibition (in general, the drop in the measured response relative to a control, in per cent) was inactive: -2.28%.
As for `N/C(=N\O)c1c(N)no[n+]1[O-]`, the inhibition is inactive: -4.15%.
The same measure for `O=C(OC1CN2CCC1CC2)C1c2ccccc2C=Cc2ccccc21` (centres undefined): inactive: -2.12%; for `COc1ccc(C(=O)NCC2(N3CCOCC3)CCCCC2)cc1OC`: inactive: -0.7%.
`CN(C)C1(CNC(=O)c2cccc(C#N)c2)CCCCC1`: the inhibition is inactive: 0.33%.
As to `c1ccc(CN2CCC(Nc3ccccc3)CC2)cc1`, the inhibition is inactive: -0.53%.
Next, `CCCN1CCC(Nc2cc(OC)cc(OC)c2)CC1`: inactive: 0.16%; `N#Cc1ccc(C(=O)NCC2(N3CCCCC3)CCCCC2)cc1`: inactive: -1.52%; `CC(C)(C)OC(=O)N1CCC(N(C(=O)c2ccccc2)c2ccc(Cl)cc2)CC1`: inactive: -4.6%.
Turning to `CCN1CCC(Nc2cccc(F)c2)CC1`, the inhibition is inactive: -2.03%.
On to `CN(C)c1ccc(C(=O)NCC2(N3CCCCC3)CCCCC2)cc1`, for which the inhibition is inactive: -1.14%.
Take `COc1cc(OC)cc(C(=O)NCC2(N3CCCCC3)CCCCC2)c1`: the inhibition was inactive: -3.25%.
Consider `COc1cccc(C(=O)N(c2cc(C)cc(C)c2)C2CCN(C(=O)OC(C)(C)C)CC2)c1`, for which the inhibition is inactive: 0.44%.
As to `COc1cc(OC)cc(C(=O)NCC2(N3CCOCC3)CCCCC2)c1`, the inhibition is inactive: 0.91%.
As to `CCC(CO)(C(=O)OC1CN2CCC1CC2)c1ccccc1` (centres undefined), the inhibition was inactive: 0.03%.
`CN1CCC(Nc2ccc(Cl)cc2)CC1`: the inhibition is inactive: -1.91%.
With `CCCOc1ccc(C)cc1CN(CCCl)CCCl`, the inhibition is inactive: -2.3%.
Next, `CCOc1ncccc1C(=O)NCC1(N2CCOCC2)CCCCC1`: inactive: -1.37%; `CN1CCC(Nc2ccc(F)c(Cl)c2)CC1`: inactive: -0.99%.
On to `CC(C)(C)OC(=O)N1CCC(Nc2ccccc2)CC1`, for which the inhibition is inactive: -2.15%.
With `O=C(O)C1(Nc2ccccc2)CCN(Cc2ccccc2)CC1`, the inhibition is inactive: -0.21%.
Regarding `CCCOc1ccc(C(=O)NCC2(N(C)C)CCCCC2)cc1`, the inhibition was inactive: -1.85%.
As for `Cc1cc(C)cc(N(C(=O)c2ccccc2)C2CCN(C(=O)OC(C)(C)C)CC2)c1`, the inhibition is inactive: -5.15%.
For `O=C(NCC1(N2CCOCC2)CCCCC1)c1cc2ccccc2o1`, the inhibition is inactive: -5.51%.
As to `O=C(OC1CN2CCC1CC2)C1c2ccccc2Oc2ccccc21` (centres undefined), the inhibition is inactive: -0.49%.
In the case of `N#CC1(Nc2ccccc2)CCN(Cc2ccccc2)CC1`, the inhibition is inactive: -2.69%.
Take `CCOC(=O)N1CCC(Nc2ccc(OC)cc2)CC1`: the inhibition was inactive: -0.82%.
On to `COc1ccc(C(=O)NCC2(N3CCCCC3)CCCCC2)cc1`, for which the inhibition was inactive: -2.27%.
Turning to `CC(C)(C)OC(=O)N1CCC(N(C(=O)c2ccccc2)c2ccc(F)cc2)CC1`, the inhibition was inactive: 0.91%.
In the case of `COc1ccc(C(=O)NCC2(N3CCCCC3)CCCCC2)c(OC)c1OC`, the inhibition is inactive: -0.28%.
On to `O=C(NCC1(N2CCCCC2)CCCCC1)c1ccc(=O)[nH]c1`, for which the inhibition was inactive: -0.02%.
Next, `CSc1ccccc1C(=O)NCC1(N2CCCCC2)CCCCC1`: inactive: -1.41%; `COc1cc(C(=O)NCC2(N(C)C)CCCCC2)ccc1OC(F)F`: inactive: -2.99%.
With `CCOC(=O)N1CCC(Nc2cccc(C)c2)CC1`, the inhibition was inactive: 0.07%.
For `Cc1ccc(OCC(C)C)c(CN(CCCl)CCCl)c1`, the inhibition is inactive: -2.36%.
The same measure for `CCOc1ccc(C)cc1CN(CCCl)CCCl`: inactive: 0.55%; for `O=C(NCC1(N2CCCCC2)CCCCC1)c1ccc(F)cc1`: inactive: -1.28%; for `CCOC(=O)N1CCC(Nc2ccc(F)cc2)CC1`: inactive: -1.29%.
With `COc1ccc(NC2CCN(CCc3ccccc3)CC2)c(OC)c1`, the inhibition was inactive: -3.21%.
In the case of `O=C(NCC1(N2CCCCC2)CCCCC1)c1cccc(C(F)(F)F)c1`, the inhibition was inactive: -3.07%.
Turning to `O=C(NCC1(N2CCOCC2)CCCCC1)c1cc(=O)[nH]c2ccccc12`, the inhibition is inactive: 0.11%.
As to `COc1cc(C(=O)NCC2(N3CCCCC3)CCCCC2)ccc1OC(F)F`, the inhibition was inactive: -0.91%.
Next, `COc1ccc(NC2CCN(C(=O)OC(C)(C)C)CC2)cc1`: inactive: 1.76%; `CN1CCN(CCOC(=O)C(O)(c2ccccc2)c2ccccc2)CC1`: inactive: -1.33%; `O=C(NCC1(N2CCCCC2)CCCCC1)c1ccc(OC(F)F)cc1`: inactive: -0.79%.
Regarding `CCN1CCC(Nc2ccc(Cl)cc2)CC1`, the inhibition was inactive: -1.18%.
The same measure for `N#CC1(Nc2ccccc2)CCN(CCc2ccccc2)CC1`: inactive: -1.85%.
Regarding `O=C(NCC1(N2CCCCC2)CCCCC1)c1cccc([N+](=O)[O-])c1`, the inhibition is inactive: -2.38%.
In the case of `CN1CCC(Nc2cccc(F)c2)CC1`, the inhibition is inactive: -4.97%.
The same measure for `CCCOc1ccc(C(=O)NCC2(N(C)C)CCCCC2)cc1OC`: inactive: -5.64%.
Consider `CC(C)c1ccc(NC2CCN(C(=O)OC(C)(C)C)CC2)cc1`, for which the inhibition was inactive: -0.84%.
The same measure for `COc1ccc(CN(CCCl)CCCl)cc1Cl`: inactive: -0.17%; for `CN(C)c1cccc(C(=O)NCC2(N3CCCCC3)CCCCC2)c1`: inactive: 1.56%.
Take `COc1cc(OC)c(C(=O)NCC2(N(C)C)CCCCC2)cc1OC`: the inhibition is inactive: -0.54%.
